According to patent US8778876B2, “Small-molecule inhibitors of Dengue and West Nile virus proteases” (The Board of Regents of the University of Texas System, priority 2011, dated 2014):

Details: Table 3; aqueous buffer

## O=[N+]([O-])c1cc(Cl)cc([N+](=O)[O-])c1O
  Solubility: S (compounds soluble in aqueous buffer were indicated with “S”)
